From publication PMC10353390, “Biological and Structural Analyses of New Potent Allosteric Inhibitors of HIV-1 Integrase” (Antimicrobial Agents and Chemotherapy, 2023)

Tested on: NL4-3 HIV-1 strain
Assay: In vitro selection of resistance in MT4 cells under escalating drug pressure
Assay type: cell-based
Details: percentage of total missense mutations in IN

Cc1ccc(C2CC2)c(-c2ccc3c(c2)CCCO3)c1[C@H](OC(C)(C)C)C(=O)O [BDM-2]
Frequency of IN mutation A128T, Early (18 dpi): 57% | Frequency of IN mutation A129T, Early (18 dpi): 0% | Frequency of IN mutation E170G, Early (18 dpi): 0% | Frequency of IN mutation H171Q, Early (18 dpi): 0% | Frequency of IN mutation L172I/F, Early (18 dpi): 0% | Frequency of IN mutation N222K, Early (18 dpi): 7% | Frequency of IN mutation T125A, Early (18 dpi): 0% | Frequency of IN mutation T174I, Early (18 dpi): 0% | Frequency of IN mutation Y99H, Early (18 dpi): 36% | Frequency of IN mutation A128T, Intermediate (42 dpi): 50% | Frequency of IN mutation A129T, Intermediate (42 dpi): 0% | Frequency of IN mutation E170G, Intermediate (42 dpi): 0% | Frequency of IN mutation H171Q, Intermediate (42 dpi): 0% | Frequency of IN mutation L172I/F, Intermediate (42 dpi): 0% | Frequency of IN mutation N222K, Intermediate (42 dpi): 19% | Frequency of IN mutation T125A, Intermediate (42 dpi): 0% | Frequency of IN mutation T174I, Intermediate (42 dpi): 0% | Frequency of IN mutation Y99H, Intermediate (42 dpi): 31% | Frequency of IN mutation A128T, Final (66 to 73 dpi): 30% | Frequency of IN mutation A129T, Final (66 to 73 dpi): 10% | Frequency of IN mutation E170G, Final (66 to 73 dpi): 3% | Frequency of IN mutation H171Q, Final (66 to 73 dpi): 3% | Frequency of IN mutation L172I/F, Final (66 to 73 dpi): 3% | Frequency of IN mutation N222K, Final (66 to 73 dpi): 13% | Frequency of IN mutation T125A, Final (66 to 73 dpi): 3% | Frequency of IN mutation T174I, Final (66 to 73 dpi): 10% | Frequency of IN mutation Y99H, Final (66 to 73 dpi): 23%

Cc1nc2ccccc2c(-c2ccc3c4c(ccnc24)CCO3)c1[C@H](OC(C)(C)C)C(=O)O [BI-224436, reference compound]
Frequency of IN mutation A128T, Early (18 dpi): 40% | Frequency of IN mutation E170G, Early (18 dpi): 20% | Frequency of IN mutation H171Q, Early (18 dpi): 20% | Frequency of IN mutation N222K, Early (18 dpi): 20% | Frequency of IN mutation T174I, Early (18 dpi): 0% | Frequency of IN mutation Y99H, Early (18 dpi): 0% | Frequency of IN mutation A128T, Intermediate (42 dpi): 33% | Frequency of IN mutation E170G, Intermediate (42 dpi): 11% | Frequency of IN mutation H171Q, Intermediate (42 dpi): 11% | Frequency of IN mutation N222K, Intermediate (42 dpi): 11% | Frequency of IN mutation T174I, Intermediate (42 dpi): 22% | Frequency of IN mutation Y99H, Intermediate (42 dpi): 11% | Frequency of IN mutation A128T, Final (66 to 73 dpi): 38% | Frequency of IN mutation E170G, Final (66 to 73 dpi): 0% | Frequency of IN mutation H171Q, Final (66 to 73 dpi): 13% | Frequency of IN mutation N222K, Final (66 to 73 dpi): 13% | Frequency of IN mutation T174I, Final (66 to 73 dpi): 25% | Frequency of IN mutation Y99H, Final (66 to 73 dpi): 13%
